Viral titers decreased data for one molecule are collected here from patent US9096585B2 (Icahn School of Medicine at Mount Sinai, priority 2010, dated 2015).

In this assay the test system is influenza A virus. The following applies: influenza A/WSN/33, A549, 10 μM A3 or less.

`Cc1[nH]c2ccc(-c3nnc(SCC(=O)N4CCCC4)o3)cc2c1C` [Compound A3] yielded a viral titers decreased of 5 logs.
